Measured values from several laboratories, pooled; numbers as filed in NIAID ChemDB.

Common to all: tests in culture; species: Mycobacterium tuberculosis

ECn: concentration that inhibits the pathogen or its effect by n%.

structure	strain	cells	read-out	dose	method	mutations	result
CC(C)C[C@@H]1NC(=O)[C@H](Cc2c[nH]c3ccccc23)NC(=O)[C@@H](CCCN)NC(=O)[C@H](CC(N)=O)NC(=O)[C@H](C(C)C)NC(=O)[C@@H](CC(C)C)NC1=O	HN353		EC50		turbidity		1.42 µM
Cn1c(=O)cc(Oc2nc(Nc3ccc(C#N)cc3)nc(Nc3nc4ccc(Cl)cc4s3)n2)c2ccccc21			inhibition	100 µg/mL	agar		95%
CCCCCNc1sc(-c2ccc(OCc3c(Cl)cccc3Cl)cc2)cc1C(=O)O	H37Rv		EC50		resazurin		52.55 µM
O=C(NN=C1CCCC1)c1ccncc1	EMB-resistant		MIC				0.1 µg/mL
CC1(C)C2CC3OB(C[C@@H](Cc4ccccc4)NC(=O)[C@@H](N)Cc4c[nH]c5ccccc45)O[C@]3(C)C1C2	H37Rv		MIC		agar		≤500 µg/mL
COc1cc(-c2nnc(Sc3nc(Nc4ccc(C#N)cc4)nc(Oc4cc(=O)n(C)c5ccccc45)n3)o2)cc(OC)c1OC			MIC		agar		12.5 µg/mL
COc1cccc(C2CC(c3c(O)c4ccccc4oc3=O)=NN2)c1O	H37Rv		MIC90		agar		>6.25 µg/mL
O=C1N[C@@H]2C(=C[C@H](O)[C@@H](O)[C@H]2O)c2cc3c(cc21)OCO3	H37Rv		inhibition	12.5 µg/mL	BACTEC		28%
C[C@H]1CN(c2c(F)cc3c(=O)c(C(=O)O)cn(C4CC4)c3c2OC(F)F)CCN1	100 isolates		MIC90				1 µg/mL
Cn1c(=O)cc(Oc2nc(Nc3ccc(C#N)cc3)nc(Oc3cc(=O)n(C)c4ccccc34)n2)c2ccccc21			inhibition	50 µg/mL	agar		96%
CCn1cc(C(=O)O)c(=O)c2cc(F)c(N3CCN(CN4C(=O)/C(=N\c5ncc(Cc6cc(OC)c(OC)c(OC)c6)c(N)n5)c5cc(Br)ccc54)C(C)C3)c(F)c21			inhibition	6.25 µg/mL	BACTEC		0%
CO[C@H]1/C=C/O[C@@]2(C)Oc3c(C)c(O)c4c(O)c(cc(O)c4c3C2=O)NC(=O)/C(C)=C\C=C\[C@H](C)[C@H](O)[C@@H](C)[C@@H](O)[C@@H](C)[C@H](OC(C)=O)[C@@H]1C	Aoyama B (amithiozone-resistant)		MIC				12.5 µg/mL
CC(C)C[C@@H]1NC(=O)[C@H](Cc2c[nH]c3ccccc23)NC(=O)[C@H](CCCCN)NC(=O)[C@H](CC(N)=O)NC(=O)[C@H](C(C)C)NC(=O)[C@@H](CC(C)C)NC1=O	HN353		MIC90		turbidity		>30 µM
O=C(N/N=C/c1cccc(/C=N/NC(=O)c2ccncc2)c1)c1ccncc1			MIC90				0.8 µg/mL
Cn1c(=O)cc(Oc2nc(Nc3ccc(C#N)cc3)nc(Nc3nc4ccc([N+](=O)[O-])cc4s3)n2)c2ccccc21			inhibition	100 µg/mL	agar		95%
O=C(/C=C/c1ccc(Cl)cc1Cl)c1c(O)c2ccccc2oc1=O	H37Rv		MIC90		agar		>6.25 µg/mL
C[C@@H](B1OC2CC3CC(C3(C)C)[C@@]2(C)O1)[C@@H](Cc1ccccc1)NC(=O)[C@@H](N)CCCCN	H37Rv		MIC				≤50 µg/mL
O=C(Nc1sc(-c2ccc(OCc3c(Cl)cccc3Cl)cc2)cc1C(=O)O)c1ccccc1Cl	H37Rv		EC50		resazurin		88.56 µM
O=C(Nc1ccc(Cl)cc1)Nc1nnc2nc(CC(=O)c3ccccc3)c(=O)[nH]n12	H37Rv		inhibition	12.5 µg/mL	BACTEC		69%
O=c1oc2ccccc2c(O)c1C1=NN(c2ccccc2)C(c2ccccc2-c2ccccn2)C1	H37Rv		MIC90		agar		>6.25 µg/mL
CCCCCCCCCCCC/C=N/NC(=O)c1ccncc1			MIC90				0.4 µg/mL
O=C(Nc1sc(-c2ccc(OCc3c(Cl)cccc3Cl)cc2)cc1C(=O)O)c1ccccc1	H37Rv		EC50		resazurin		85.74 µM
COc1cc(Cc2cnc(/N=C3\C(=O)N(CN4CCCC4)c4ccc(Br)cc43)nc2N)cc(OC)c1OC			inhibition	6.25 µg/mL	BACTEC		90%
CC(C)(C)C1CCC(=NNC(=O)c2ccncc2)CC1	Erdman		MIC				0.1 µg/mL
O=C(Nc1sc(-c2ccc(OCc3ccc(Cl)c(Cl)c3)cc2)cc1C(=O)O)c1ccc(Cl)cc1	H37Rv		MIC		resazurin		110.2 µM
CC[C@@H](CO)NCCN[C@@H](CC)CO	mc(^2)7000		MIC99		agar		1–2.5 µg/mL
NC(=O)c1c[n+]([O-])ccn1	H37Rv		MIC bound		BACTEC		>12.5 µg/mL
O=C(N/N=C/c1ccc(F)cc1)c1ccncc1			MIC90				0.2 µg/mL
O=c1nc(N2CCC(=NOCc3ccccc3)CC2)sc2c([N+](=O)[O-])cc(C(F)(F)F)cc12	16892 clinical isolate		MIC90		resazurin		0.016 µg/mL
CC(=O)NC[C@H]1CN(c2ccc(N3CCOCC3)c(F)c2)C(=O)O1	Strain 23		MIC				0.25 µg/mL
COc1cccc(C2CC(c3c(O)c4ccccc4oc3=O)=NN2c2ccccc2)c1O	INHR-MTB		MIC90		agar	Isoniazid-resistant	>6.25 µg/mL
[O-][n+]1c2ccccc2nc2ccccc21	H37Rv	VERO	MIC				6.25 µg/mL
NC[C@@H]1O[C@H](O[C@H]2[C@@H](O)[C@H](O[C@@H]3[C@@H](O)[C@H](N)C[C@H](N)[C@H]3O[C@H]3O[C@H](CO)[C@@H](O)C[C@H]3N)O[C@@H]2CO)[C@H](N)[C@@H](O)[C@@H]1O[C@H]1O[C@H](CO)[C@@H](O)[C@H](O)[C@@H]1O	H37Rv (kanamycin-resistant)		EC50				≥50 µg/mL
CNC1CCCN(c2c(F)cc3c(=O)c(C(=O)O)cn(C4CC4)c3c2OC)C1	100 isolates		MIC50				1 µg/mL
CO[C@H]1/C=C/O[C@@]2(C)Oc3c(C)c(O)c4c(O)c(c(/C=N/N5CCN(C)CC5)c(O)c4c3C2=O)NC(=O)/C(C)=C\C=C\[C@H](C)[C@H](O)[C@@H](C)[C@@H](O)[C@@H](C)[C@H](OC(C)=O)[C@@H]1C	H37Ra		EC50		turbidity		0.04 µM
Cc1cc(C)n(/N=C/c2ccc([N+](=O)[O-])o2)c(=O)c1C#N	H37Rv		inhibition	12.5 µg/mL	BACTEC		100%
C[C@@H](B1OC2CC3CC(C3(C)C)[C@@]2(C)O1)[C@@H](Cc1ccccc1)NC(=O)[C@H](Cc1ccccc1)NC(=O)[C@@H](N)CCCCN	H37Rv		MIC				≤50 µg/mL
O=C(Nc1sc(-c2ccc(OCc3c(Cl)cccc3Cl)cc2)cc1C(=O)O)c1ccco1	H37Rv		EC50		resazurin		91.73 µM
CN(C)C(=O)Nc1cc2c3c(c1)CCCN3CCC2	H37Rv		MIC bound		BACTEC		>12.5 µg/mL
COc1cc(Cc2cnc(/N=C3\C(=O)N(CN4CCN(c5cc6c(cc5F)c(=O)c(C(=O)O)cn6C5CC5)CC4)c4ccc(Br)cc43)nc2N)cc(OC)c1OC			inhibition	6.25 µg/mL	BACTEC		0%
CCOC(=O)Cc1cc(=O)oc2c(CN3CCN(c4ccc(C)cc4)CC3)c(O)ccc12	H37Rv		MIC bound		resazurin		>6.25 µg/mL
COc1cc(Cc2cnc(/N=C3\C(=O)N(CN4CCN(c5cccc(C(F)(F)F)c5)CC4)c4ccc(Br)cc43)nc2N)cc(OC)c1OC			inhibition	6.25 µg/mL	BACTEC		31%
NCCCC[C@H](N)C(=O)N[C@@H](CB(O)O)Cc1ccccc1	H37Rv		MIC		agar		≤50 µg/mL
CON=C1CN(c2nc(=O)c3cc(C(F)(F)F)cc([N+](=O)[O-])c3s2)C1	16802 clinical isolate		MIC90		resazurin		0.031 µg/mL
CC1(C)C2CC3OB([C@H](Cc4ccccc4)[C@@H](Cc4ccccc4)NC(=O)[C@@H](N)CCCCN)O[C@]3(C)C1C2	H37Rv		MIC				≤50 µg/mL
CC(C)C[C@@H]1NC(=O)[C@H](Cc2c[nH]c3ccccc23)NC(=O)[C@@H](CCCCN)NC(=O)[C@H](CC(N)=O)NC(=O)[C@H](C(C)C)NC(=O)[C@@H](CC(C)C)NC1=O	HN353		EC50		turbidity		0.32 µM
CO/N=C1\CCN(c2nc(=O)c3cc(C(F)(F)F)cc([N+](=O)[O-])c3s2)C1	H37Rv		MIC90		resazurin		0.116 µg/mL
COc1ccccc1C(=O)Nc1sc(-c2ccc(OCc3c(Cl)cccc3Cl)cc2)cc1C(=O)O	H37Rv		MIC		resazurin		>128 µM
O=C1c2ccccc2-n2c1nc1ccccc1c2=O	H37Rv		MIC bound		BACTEC		≤12.5 µg/mL
CC1(C)C2CC3OB(C[C@@H](Cc4ccccc4)NC(=O)[C@@H](N)CCCCN)O[C@]3(C)C1C2	H37Rv		MIC				≤5 µg/mL
CC(=O)CC(c1ccccc1)c1c(O)c2ccccc2oc1=O	H37Rv		MIC bound		BACTEC		>12.5 µg/mL
C[C@H](N)C(=O)N[C@@H](CB1OC2CC3CC(C3(C)C)[C@@]2(C)O1)Cc1ccccc1	H37Rv		MIC				≤50 µg/mL
CCCCc1ccc(N2C(=O)c3cc([N+](=O)[O-])cnc3S2(=O)=O)cc1	H37Rv		MIC bound		resazurin		>6.25 µg/mL
CCOC(=O)c1cc(-c2ccc(OCc3c(Cl)cccc3Cl)cc2)sc1NC(=O)C(=O)O	H37Rv		MIC		resazurin		1.9 µM
NC(=O)C(=CNC(=S)Nc1ccc(S(=O)(=O)Nc2ccccn2)cc1)C(N)=O	H37Rv		inhibition	6.25 µg/mL	resazurin		17%
CO/N=C1\CCCN(c2nc(=O)c3cc(C(F)(F)F)cc([N+](=O)[O-])c3s2)CC1	16802 clinical isolate		MIC90		resazurin		0.016 µg/mL
O=c1[nH][nH]c(=O)c2nc3c(nc12)c1nc2c(=O)[nH][nH]c(=O)c2nc1c1nc2c(=O)[nH][nH]c(=O)c2nc31	H37Rv		MIC bound		BACTEC		>12.5 µg/mL
COc1cccc(N2CCN(CN3C(=O)/C(=N\c4ncc(Cc5cc(OC)c(OC)c(OC)c5)c(N)n4)c4cc(Br)ccc43)CC2)c1			inhibition	6.25 µg/mL	BACTEC		43%
CC1CN(C(=O)/C=C/C(=O)OC2CCCCC2)CCN1C(=O)/C=C/C(=O)OC1CCCCC1	H37Rv		MIC				12.5 µg/mL
C[C@H]1COc2c(N3CCN(C)CC3)c(F)cc3c(=O)c(C(=O)O)cn1c23	Strain 23		MIC				0.25 µg/mL
COc1ccc2c(c1)[n+](=O)c(C(=O)CC(=O)C(=O)Nc1cccc(Cl)c1C)c(C)n2[O-]	H37Rv		MIC bound		BACTEC		>12.5 µg/mL
N[C@@H](Cc1ccccc1)C(=O)N[C@@H](CB(O)O)Cc1ccccc1	H37Rv		MIC				≤5 µg/mL
Cc1cccc(/C=N/Nc2cc(C)c3ccccc3n2)n1	H37Rv		MIC bound		BACTEC		≤12.5 µg/mL
Cn1c(=O)cc(Oc2nc(Nc3ccc(C#N)cc3)nc(Nc3cnccn3)n2)c2ccccc21			inhibition	250 µg/mL	agar		96%
CO[C@H]1/C=C/O[C@@]2(C)Oc3c(C)c(O)c4c5c(cc(O)c4c3C2=O)N=C(O5)/C(C)=C\C=C\[C@H](C)[C@H](O)[C@@H](C)[C@@H](O)[C@@H](C)[C@H](OC(C)=O)[C@@H]1C	H37Rv		inhibition	6.25 µg/mL	resazurin		46%
O=C(Nc1sc(-c2ccc(OCc3c(Cl)cccc3Cl)cc2)cc1C(=O)O)c1cccc(Cl)c1	H37Rv		EC50		resazurin		89.78 µM
CN(C)n1c(O)c(N=O)sc1=S	H37Rv		MIC		BACTEC		≥12.8 µg/mL
CO[C@H]1/C=C/O[C@@]2(C)Oc3c(C)c(O)c4c(=O)c(c5oc6cc(N7CCN(CC(C)C)CC7)cc(=O)c6nc5c4c3=C2O)NC(=O)/C(C)=C\C=C\[C@H](C)[C@H](O)[C@@H](C)[C@@H](O)[C@@H](C)[C@H](OC(C)=O)[C@@H]1C	2225 (rifampicin-resistant)		MIC				4 µg/mL
C/C(=N\NC(=O)C[n+]1ccccc1)C(CN(CC(C)C)CC(C)C)C(=O)Nc1ccc(C)cc1C.[Cl-]	H37Rv		MIC bound		BACTEC		>12.5 µg/mL
CC(C)C[C@@H]1NC(=O)[C@H](Cc2c[nH]c3ccccc23)NC(=O)[C@@H](CCCN=C(N)N)NC(=O)[C@H](CC(N)=O)NC(=O)[C@H](C(C)C)NC(=O)[C@@H](CC(C)C)NC1=O	H37Rv		EC50		turbidity		1.03 µM
CNc1ccccc1S(=O)(=O)c1ccccc1[N+](=O)[O-]	H37Rv		inhibition	12.5 µg/mL	BACTEC		23%
C=CCNc1sc(-c2ccc(OCc3c(Cl)cccc3Cl)cc2)cc1C(=O)O	H37Rv		EC50		resazurin		27.53 µM
CCOP(=O)(CC(=O)C1=C(O)C(CCCNC(=O)OC(C)(C)C)N(Cc2ccc(OC)c(OC)c2)C1=O)OCC	H37Rv		MIC bound		resazurin		>6.25 µg/mL
CN(CC1CCCCC1)C1CCN(c2nc(=O)c3cc(C(F)(F)F)cc([N+](=O)[O-])c3s2)CC1	16892 clinical isolate		MIC90		resazurin		0.016 µg/mL

Repeating the final 4 entries:

structure | strain | cells | read-out | dose | method | mutations | result
CNc1ccccc1S(=O)(=O)c1ccccc1[N+](=O)[O-] | H37Rv |  | inhibition | 12.5 µg/mL | BACTEC |  | 23%
C=CCNc1sc(-c2ccc(OCc3c(Cl)cccc3Cl)cc2)cc1C(=O)O | H37Rv |  | EC50 |  | resazurin |  | 27.53 µM
CCOP(=O)(CC(=O)C1=C(O)C(CCCNC(=O)OC(C)(C)C)N(Cc2ccc(OC)c(OC)c2)C1=O)OCC | H37Rv |  | MIC bound |  | resazurin |  | >6.25 µg/mL
CN(CC1CCCCC1)C1CCN(c2nc(=O)c3cc(C(F)(F)F)cc([N+](=O)[O-])c3s2)CC1 | 16892 clinical isolate |  | MIC90 |  | resazurin |  | 0.016 µg/mL

MIC bound comes from a single tested concentration. Neighbouring rows are from separate reports. Inhibition is in % at the dose shown (toxicity tests: loss of growth or viability). Two numbers with a dash give a range or band. An empty or dashed field is not shown. MIC50, MIC90 and the like: level of inhibition, or share of isolates inhibited.